A mixed list of measured activities; the numbers were collected in NIAID ChemDB.

Common to all: tests in culture; organism: Cytomegalovirus; read by: cytopathic effect; endpoint: EC50

ECn: concentration that inhibits the pathogen or its effect by n%.

SMILES | strain or isolate | cell line | value
O=S(=O)(Cc1ccccc1)c1ncccc1O |  | HEL | >50 µg/mL
CC1(C)[C@@H](CO)CC[C@@]1(C)Cn1ccc(=O)[nH]c1=O | DAVIS | HEL | >50 µg/mL
Cc1ccc(C)c(CS(=O)(=O)c2c(O)ccc[n+]2[O-])c1 |  | HEL | >50 µg/mL
Nc1ncnc2c1ncn2[C@@H]1O[C@H](CO)[C@](O)(C(F)(F)F)[C@H]1O | DAVIS | VERO | >50 µg/mL
Cc1ccc[n+]([O-])c1S(=O)(=O)Cc1ccccc1 |  | HEL | >20 µg/mL
C=C[C@@H](O)C1=C[C@@H](n2cnc3c(N)ncnc32)[C@H](O)[C@@H]1O | AD169 | HEL | >50 µg/mL
Nc1ncnc2c1ncn2[C@@H]1C=C(CO)[C@@H](O)[C@H]1O | DAVIS | HEL | 0.4 µg/mL
O=c1ccn([C@@H]2O[C@H](CO)[C@](O)(C(F)(F)F)[C@H]2O)c(=O)[nH]1 | AD169 | VERO | >50 µg/mL
C#C[C@@H](O)C1=C[C@@H](n2cnc3c(N)ncnc32)[C@H](O)[C@@H]1O | DAVIS | HEL | >50 µg/mL
Nc1nc(N)c2ncn(C[C@H](CF)OCP(=O)(O)O)c2n1 | AD169 | HEL | >300 µM
Nc1nc2c(ncn2[C@H]2CO[C@@H](CO)C2)c(=O)[nH]1 | DAVIS | HEL | >40 µg/mL
CC1(C)[C@@H](CO)CC[C@@]1(C)Cn1cc(Br)c(=O)[nH]c1=O | DAVIS | HEL | >50 µg/mL
OC[C@H]1O[C@@H](c2cc(C(O)C(I)I)c(F)cc2F)C[C@@H]1O | AD169 | HEL | >200 µg/mL
Nc1nc2c(ncn2[C@@H](CCO)OCCO)c(=O)[nH]1 |  | HFF | >200 µM
Cc1ccc(CSc2ccccn2)cc1C |  | HEL | 1.2 µg/mL
Nc1nc2c(ncn2C[C@H](CO)OCP(=O)(O)O)c(=O)[nH]1 | AD169 | HEL | 0.56 µM
Cc1cn(C(CCO)OCCO)c(=O)[nH]c1=O |  | HFF | >200 µM
Cc1ccc(C)c(C(C)S(=O)(=O)c2cc(C)cc(C)[n+]2[O-])c1 |  | HEL | 14 µg/mL
Nc1ncnc2c1ncn2C[C@@H](CO)OCP(=O)(O)O | AD169 | HEL | 1.4 µM
CCCCCCCC(Sc1cccc[n+]1[O-])c1cc(C)c(C)c(C)c1 |  | HEL | 2 µg/mL
Nc1nc(Cl)c2ncn([C@H]3CO[C@@H](CO)C3)c2n1 | DAVIS | HEL | >40 µg/mL
CC(C)CS[C@H]1C[C@@H](n2cnc3c(N)ncnc32)[C@H](O)[C@@H]1O | AD169 | HEL | >200 µg/mL
Cc1ccccc1C(c1ccccc1)S(=O)(=O)c1cccc[n+]1[O-] |  | HEL | 11.5 µg/mL
Nc1nc2c(ncn2COCCO)c(=O)[nH]1 | AD169 | HEL | 30 µg/mL
Nc1nc(Cl)c2ncn([C@@H](CCO)SCCO)c2n1 |  | HFF | >200 µM
Cc1ccccc1C(C(N)=O)S(=O)c1cccc[n+]1[O-] |  | HEL | >50 µg/mL
CC1(C)[C@@H](CO)CC[C@@]1(C)Cn1cnc2c(N)ncnc21 | DAVIS | HEL | >50 µg/mL
CN(C)c1ccnc(SCc2ccc(Cl)cc2)c1C#N |  | HEL | >5 µg/mL
Nc1ncc2ncn(C[C@@H](CO)OCP(=O)(O)O)c2n1 | AD169 | HEL | 122 µM
COc1cc(CS(=O)(=O)c2cccc[n+]2[O-])cc(OC)c1OC |  | HEL | >50 µg/mL
Nc1ncnc2c1ncn2C[C@H](CO)OCP(=O)(O)O | AD169 | HEL | 231 µM
Cc1ccc(C)c(C(C)Sc2cccc[n+]2[O-])c1 |  | HEL | >20 µg/mL
OC[C@H]1O[C@@H](c2cc(C(O)C(Br)Br)c(F)cc2F)C[C@@H]1O | AD169 | HEL | >200 µg/mL
CC1(C)[C@@H](CO)CC[C@@]1(C)Cn1cnc2c(Cl)ncnc21 | DAVIS | HEL | >50 µg/mL
Cc1ccc[n+]([O-])c1S(=O)(=O)C(C)c1cccc([N+](=O)[O-])c1C |  | HEL | >50 µg/mL
C#C[C@H](O)C1=C[C@@H](n2cnc3c(N)ncnc32)[C@H](O)[C@@H]1O | AD169 | HEL | >50 µg/mL
Nc1ncnc2c1ncn2C[C@H](O)CO | AD169 | HEL | 200 µg/mL

The first 5 rows once more:

SMILES | strain or isolate | cell line | value
O=S(=O)(Cc1ccccc1)c1ncccc1O |  | HEL | >50 µg/mL
CC1(C)[C@@H](CO)CC[C@@]1(C)Cn1ccc(=O)[nH]c1=O | DAVIS | HEL | >50 µg/mL
Cc1ccc(C)c(CS(=O)(=O)c2c(O)ccc[n+]2[O-])c1 |  | HEL | >50 µg/mL
Nc1ncnc2c1ncn2[C@@H]1O[C@H](CO)[C@](O)(C(F)(F)F)[C@H]1O | DAVIS | VERO | >50 µg/mL
Cc1ccc[n+]([O-])c1S(=O)(=O)Cc1ccccc1 |  | HEL | >20 µg/mL

Neighbouring rows are from separate reports. An empty or dashed field is not shown.